Anti-infective test results gathered from many reports (values: NIAID ChemDB through PubChem).

All rows: toxicity to cultured cells; measure: CC50

Blank or dashed fields: not listed here.

smiles | method | cells | result
CN1CCn2c(nc(C(=O)NCc3ccc(F)cc3)c(O)c2=O)C1COCc1ccccc1 | microscopy | MT-4 | >10 µM
CN1C[C@H](O)[C@H](O)[C@H]1CO | - | T CELLS | >100 µg/mL
COc1ccc(OC)c(OC)c1CNC(=O)c1ccc2cccnc2n1 | - | WST-1 | >56.6 µM
CCOC(=O)CCCCCOc1cccc(CN(C(=O)c2ccc(-c3cccc(-c4nnc(C)o4)c3)cc2)C(C)C)c1 | - | RAJI | >20 µM
C[C@H]1CC[C@]2(CC(C#N)=NO2)[C@H]2CN1C(=O)c1c(O)c(=O)c(C(=O)NCc3ccc(F)cc3F)cn12 | luminescence | MT-4 | 50 µM
CN(C)CCN1CCn2c(nc(C(=O)NCc3ccc(F)cc3)c(O)c2=O)C1(C)C | microscopy | MT-4 | >1 µM
OC[C@H]1NC[C@H](O)[C@@H]1O | - | T CELLS | >130 µg/mL
Nc1ncnc2c1c(-c1ccccc1)cn2[C@@H]1O[C@H](CO)[C@@H](O)C1(F)F | XTT | Replicon cells | 41.83 µM
C[C@H]1CC[C@@]2(ON=C(CF)[C@@H]2O)[C@H]2CN1C(=O)c1c(O)c(=O)c(C(=O)NCc3ccc(F)cc3F)cn12 | luminescence | MT-4 | 50 µM
Nc1nc(=O)n([C@@H]2O[C@H](CO)[C@@H](O)[C@@H]2F)cc1I | cell count | OMK | ≤49 µM
Cc1cc(NC(=O)c2c(C)c(C(=O)C(=O)NCC(C)(C)O)n(C)c2CC2CC2)ccc1F | MTT | HepG2 | 5–30 µM
CC(C)Oc1cccc(-c2ccc(C(=O)N(Cc3cccc(OCCCCCC(=O)OC(=O)O)c3)C(C)C)cc2)c1 | - | RAJI | >20 µM
CC(=O)N1CC[C@H](NC(=O)C(=O)c2c(C)c(C(=O)Nc3ccc(F)c(C)c3)c(C)n2C)C[C@H]1C | MTT | HepG2 | >30 µM
C[C@H]1CC[C@]2(CC(=O)N(C)O2)[C@H]2CN1C(=O)c1c(O)c(=O)c(C(=O)NCc3c(F)cc(F)cc3F)cn12 | luminescence | MT-4 | 50 µM
Cc1cc(NC(=O)c2c(C)c(C(=O)C(=O)NC3(C)CCC(O)CC3)n(C)c2C(C)C)ccc1F | MTT | HepG2 | >30 µM
O=c1[nH]c(=O)n([C@H]2C[C@H](O)[C@@H](CO)O2)cc1/C=C/Cl | cell count | P3HR-1 | >70 µM
C=CCN(N=O)C(=O)N(CCC)CCC[C@H](NC(C)=O)C(=O)NCc1ccccc1 | - | CEM-IW | >100 µM
CCC1(NC(=O)C(=O)c2c(C)c(C(=O)Nc3ccc(F)c(C)c3)c(C)n2C)CCC(O)CC1 | MTT | HepG2 | >30 µM
CCN1CCn2c(nc(C(=O)NCc3ccc(F)cc3)c(O)c2=O)C(N(C)C(=O)C(=O)N(C)C)C1 | microscopy | MT-4 | >1 µM
Nc1ncnc2c1c(-c1ccoc1)cn2[C@H]1O[C@H](CO)[C@@H](O)C1(F)F | XTT | Replicon cells | >44 µM
CN1C[C@@H](O)[C@@H](O)[C@H](O)[C@H]1CO | - | T CELLS | >300 µg/mL
Cc1cc(NC(=O)c2c(C)c(C(=O)C(=O)N[C@@H]3CC[C@H](O)CC3(C)C)n(C)c2C)ccc1F | MTT | HepG2 | >30 µM
CC(CCC(=O)N[C@@H](Cc1ccc(O)cc1)C(=O)O)C1CCC2C3CCC4C[C@H](O)CCC4(C)C3C[C@H](O)C12C | XTT | VK2/E6E7 | 227.5 µg/mL
Cc1cc(NC(=O)c2c(C)c(C(=O)C(=O)NC3(C)CNC(=O)C34CC4)n(C)c2C)ccc1F | MTT | HepG2 | >30 µM
CC(=O)N1CCn2c(nc(C(=O)NCc3ccc(F)cc3)c(O)c2=O)C1COCc1ccccc1 | microscopy | MT-4 | >10 µM
Nc1ncnc2c1c(-c1ccoc1)cn2[C@@H]1O[C@H](CO)[C@@H](O)C1(F)F | XTT | Replicon cells | >44 µM
CN1CCn2c(nc(C(=O)NCc3ccc(F)cc3)c(O)c2=O)C(N(C)Cc2ccccc2)C1 | microscopy | MT-4 | >10 µM
C#Cc1cn([C@@H]2O[C@H](CO)[C@@H](O)[C@H]2F)c2ncnc(N)c12 | XTT | Replicon cells | 21.9 µM
C[C@H]1CC[C@]2(CC(=O)N(Cc3ccc(F)cc3)O2)[C@H]2CN1C(=O)c1c(O)c(=O)c(C(=O)NCc3c(F)cc(F)cc3F)cn12 | luminescence | MT-4 | 50 µM
Oc1ccc([C@H]2Oc3ccc(/C=C/c4cc(O)cc(O)c4)cc3[C@@H]2c2cc(O)cc(O)c2)cc1 | MTT | MDCK | 37.04 µg/mL
Nc1ncnc2ncn(/C=C3/C(F)C3(CO)CO)c12 | - | Akata | >100 µM
Nc1ncnc2c1c(-c1ccco1)cn2[C@@H]1O[C@H](CO)[C@@H](O)C1(F)F | XTT | Replicon cells | 25.47 µM
Cc1c(C(=O)Nc2ccc(F)cc2)c(C)n(C)c1C(=O)C(=O)NC1(C)CCC(O)CC1 | MTT | HepG2 | >30 µM
COc1cc(OC)cc([C@H]2c3cc(/C=C/c4cc(O)cc(O)c4)ccc3O[C@@H]2c2ccc(O)cc2)c1 | MTT | MDCK | 12.74 µg/mL
Nc1ncnc2c1c(-c1ccccc1)cn2[C@H]1O[C@H](CO)[C@@H](O)C1(F)F | XTT | Replicon cells | 43.14 µM
COC(=O)C(Cc1c[nH]c2ccccc12)NP(=O)(O)OCC1C/C1=C/n1cnc2c(N)ncnc21 | - | BSC-1 | >100 µM
O=c1[nH]c(=O)n([C@H]2C[C@H](O)[C@@H](CO)O2)cc1-c1ccc(Br)s1 | cell count | OMK | 257 µM
C=C(C)C1CC[C@]2(C(=O)O)CC[C@]3(C)C(CCC4[C@@]5(C)C[C@@H](O)[C@H](C(=O)[O-])C(C)(C)C5CC[C@]43C)C12 | XTT | 1A2 | 19.8 µg/mL
C[C@H]1CC[C@]2(CC(OC3COC3)=NO2)[C@H]2CN1C(=O)c1c(O)c(=O)c(C(=O)NCc3ccc(F)cc3F)cn12 | luminescence | MT-4 | 50 µM
Nc1ncnc2c1c(-c1ccoc1)cn2[C@@H]1O[C@H](CO)[C@@H](O)[C@H]1F | XTT | Replicon cells | >44 µM
[2H]C([2H])([15NH]C(=O)c1cn2c(c(O)c1=O)C(=O)N1C[C@@H]2[C@]2(CC[C@@H]1C)CC(C)=NO2)c1ccc(F)cc1F | luminescence | MT-4 | 13.8 µM
Cc1cc(NC(=O)c2c(C)c(C(=O)C(=O)NC3(C)CC(O)C3)n(C)c2-c2cccnc2)ccc1F | MTT | HepG2 | >30 µM
C[C@H]1CCC2(OCCO2)[C@H]2CN1C(=O)c1c(O)c(=O)c(C(=O)NCc3ccc(F)cc3F)cn12 | luminescence | MT-4 | 29.4 µM
C#CCNC(=O)NCCCC[C@H](NC(C)=O)C(=O)NCc1ccccc1 | - | CEM-IW | >100 µM
CCOC(=O)CCCCCOc1cccc(CN(C(=O)c2ccc(-c3cc(F)cc(OC)c3)cc2)C(C)C)c1 | - | HEK 293 | >20 µM
CC1(C)NC(=O)Cn2c1nc(C(=O)NCc1ccc(F)cc1)c(O)c2=O | microscopy | MT-4 | >1 µM
CCOC(=O)CCCCCOc1cccc(CN(C(=O)c2ccc(-c3cccc(OCC)c3)cc2)C(C)C)c1 | - | BJ | >20 µM
Nc1ncnc2c1c(-c1cccs1)cn2[C@H]1O[C@H](CO)[C@@H](O)C1(F)F | XTT | Replicon cells | >44 µM

CCn: concentration that lowers growth or viability of the cells by n%. Rows are shuffled and stem from different studies. a–b is a range or a potency band.